Read-outs that look alike come from different tables or passages of the source.
Key:
[1] = biological target: biotinylated RBD-spike protein ([…], […]) (SARS-CoV-2)
[2] = biological target: biotinylated RBD-spike protein ([…], […]) (SARS-CoV-2); remark: listed apart in the source
[3] = biological target: biotinylated RBD-spike protein ([…], […]) (SARS-CoV-2); remark: listed apart in the source

Row | Binder | Kd [2] [nM] | further results
1 | Karunyam 9 (scFv) MNHKVHHHHHHIEGRHMSPILGYWKIKGLVQPTRLLLEYLEEKYEEHLYERDEGDKWRNKKFELGLEFPNLPYYIDGDVKLTQSMAIIRYIADKHNMLGGCPKERAEISMLEGAVLDIRYGVSRIAYSKDFETLKVDFLSKLPEMLKMFEDRLCHKTYLNGDHVTHPDFMLYDALDVVLYMDPMCLDAFPKLVCFKKRIEAIPQIDKYLKSSKYIAWPLQGWQATFGGGDHPPKGIEENLYFQSHMELGTLEGEFDPIVMIDNDKPITGGGGSGSQVQLQESGPGLVKPSETLSLTCTVSGYSISSGYYWGWIRQPPGKGLEWIGSIYHSGSTYYNPSLKTRVTISVDTSKNQFSLKLSSVTAADTAVYYCARAVVGIVVVPAAGRRAFDIWGQGTMVTVSSGGGGSGGGGSGGGGSGGGGSGGGGSQSALTQPPSASGSPGQSVTISCTGTSSDVGGYNYVSWYQQHPGKAPKLMIYEVSKRPSGVPDRFSGSKSGNTASLTVSGLQAEDEADYYCSSYAGSNNLVFGGGTKVDSVSGNLKVEFYNSNPSDTTNSINPQFKVTNTGSSAIDLSKLTLRYYYTVDGQKDQTFWCDHAAIIGSNGSYNGITSNVKGTFVKMSSSTNNADTYLEISFTGGTLEPGAHVQIQGRFAKNDWSNYTQSNDYSFKSASQFVEWDQVTAYLNGVLVWGKESR | – | Kd [1]: 4.05 nM
2 | Karunyam 21 (scFv) MNHKVHHHHHHIEGRHMSPILGYWKIKGLVQPTRLLLEYLEEKYEEHLYERDEGDKWRNKKFELGLEFPNLPYYIDGDVKLTQSMAIIRYIADKHNMLGGCPKERAEISMLEGAVLDIRYGVSRIAYSKDFETLKVDFLSKLPEMLKMFEDRLCHKTYLNGDHVTHPDFMLYDALDVVLYMDPMCLDAFPKLVCFKKRIEAIPQIDKYLKSSKYIAWPLQGWQATFGGGDHPPKGIEENLYFQSHMELGTLEGEFDPIVMIDNDKPITGGGGSGSQVQLQESGPGLVKPSETLSLTCTVSGYSISSGYYWGWIRQPPGKGLEWIGSIYHSGSTYYNPSLKTRVTISVDTSKNQFSLKLSSVTAADTAVYYCARAVVGIVVVPAAGRRAFDIWGQGTMVTVSSGGGGSGGGGSGGGGSGGGGSGGGGSQSALTQPPSASGSPGQSVTISCTGTSSDVGGYNYVSWYQQHPGKAPKLMIYEVSKRPSGVPDRFSGSKSGNTASLTVSGLQAEDEADYYCSSYAGSNNLVFGGGTKVDTNPGVSAWQVNTAYTAGQLVTYNGKTYKCLQPHTSLAGWEPSNVPALWQLQSR | 12.8 | –
3 | Karunyam 23 (scFv) MNHKVHHHHHHIEGRHMSPILGYWKIKGLVQPTRLLLEYLEEKYEEHLYERDEGDKWRNKKFELGLEFPNLPYYIDGDVKLTQSMAIIRYIADKHNMLGGCPKERAEISMLEGAVLDIRYGVSRIAYSKDFETLKVDFLSKLPEMLKMFEDRLCHKTYLNGDHVTHPDFMLYDALDVVLYMDPMCLDAFPKLVCFKKRIEAIPQIDKYLKSSKYIAWPLQGWQATFGGGDHPPKGIEENLYFQSHMELGTLEGEFDPIVMIDNDKPITGGGGSGSQVQLQESGPGLVKPSETLSLTCTVSGYSISSGYYWGWIRQPPGKGLEWIGSIYHSGSTYYNPSLKTRVTISVDTSKNQFSLKLSSVTAADTAVYYCARAVVGIVVVPAAGRRAFDIWGQGTMVTVSSGGGGSGGGGSGGGGSGGGGSGGGGSQSALTQPPSASGSPGQSVTISCTGTSSDVGGYNYVSWYQQHPGKAPKLMIYEVSKRPSGVPDRFSGSKSGNTASLTVSGLQAEDEADYYCSSYAGSNNLVFGGGTKVDYSRCQLQGFNCVVRSYGLPTIPCCRGLTCRSYFPGSTYGRCQRYSR | 12.3 | –
4 | Karunyam 26 (receptor) MNHKVHHHHHHIEGRHMSPILGYWKIKGLVQPTRLLLEYLEEKYEEHLYERDEGDKWRNKKFELGLEFPNLPYYIDGDVKLTQSMAIIRYIADKHNMLGGCPKERAEISMLEGAVLDIRYGVSRIAYSKDFETLKVDFLSKLPEMLKMFEDRLCHKTYLNGDHVTHPDFMLYDALDVVLYMDPMCLDAFPKLVCFKKRIEAIPQIDKYLKSSKYIAWPLQGWQATFGGGDHPPKGIEENLYFQSHMELGTLEGEFQSTIEEQAKTFLDFFNIQAEDLFYQSSLASWNYNTNITEENVQNMNNAGDKWSAFLKEQSTLAQMYPLQEIQNLTVKLQLQALQQNGSSVLSEDKSKRLNTILNTMSTIYSTGKVCNPDNPQECLLLEPGLVDVSGNLKVEFYNSNPSDTTNSINPQFKVTNTGSSAIDLSKLTLRYYYTVDGQKDQTFWCDHAAIIGSNGSYNGITSNVKGTFVKMSSSTNNADTYLEISFTGGTLEPGAHVQIQGRFAKNDWSNYTQSNDYSFKSASQFVEWDQVTAYLNGVLVWGKESR | – | Kd [3]: 17 nM

Reference: US20240376182A1 (SAMATVA RESEARCH, published 2024)
